# Assay results taken from US11136351B2 (priority 2016, dated 2021).
# Counter-ions that a name gives are not always drawn.
# Test system: HVA calcium channels in rat DRG neurons
# Settings: 50 μM, after [R7A]Vc1.1(1-8), Vc1.1(1-8)-Amide, [Ser^3]Vc1.1(2-8) or [Ser^3]Vc1.1(1-8) exposure
smiles,measurement,value
"NC[C@H](CC(=O)O)c1ccc(Cl)cc1 [Baclofen, R-(+)-baclofen hydrochloride]",baclofen-sensitive IBa fraction,10%
